The source of these data is publication doi:10.1101/2025.11.04.686469, “Discovery of Host-Directed Small Molecules with Broad Anti-Leishmanial Efficacy” (bioRxiv, 2025).

This data set deals with intracellular L. donovani amastigotes. Briefly: Luminescent-based evaluation of intracellular anti-leishmanial activity in THP-1 macrophages. Format: cell-based, Leishmania donovani. Particulars: 24h LC50 / Lum IC50 (Supplemental Table 2). The method, then:
Luminescent strains, L. donovani LV82 expressing firefly luciferase (a kind gift from Dr. Abhay Satoskar, Ohio State University) and L. mexicana (NR-51210, ATCC) expressing renilla luciferase were used to evaluate the effect of the compounds in intracellular and extracellular conditions. Wild-type L. donovani LV82 (ATCC) were used for Giemsa staining based experiments. All parasites were cultured at 25°C and 5% CO2 in M199 media (Corning) supplemented with 10% FBS, 1% penicillin/streptomycin, and hemin (0.01 mg/mL), and used in experiments up to passage 15.
THP-1 cells were seeded in a 96 well plate (25,000 cells/well) overnight then differentiated with 150 nM phorbol 12-myristate 13-acetate (PMA) over 72 hours (Supplemental Figure 1). […] Briefly, promastigotes of a known cell density were resuspended in RPMI media (with 10% FBS, 1% P/S and 0.05 mM β-mercaptoethanol) and incubated with adhered THP-1 cells over 18 hours. After infection, cells were washed three times with fresh media to remove extracellular promastigotes.
Infected macrophages were then treated with compounds solubilized in DMSO ranging from 0.1-10 μM in concentrations. After 72 hours of treatment, the viability of the amastigotes within macrophages was determined using Promega firefly luminescence assay (Cat E1500) or Pierce Renilla luciferase assay (Cat 16166) for L. donovani and L. mexicana strains, respectively. Briefly, media was removed, and cells were lysed with the assay lysis buffer. The luciferase substrate was then incubated with the lysed cells for 10 min at room temperature and luminescence of live Leishmania was measured in a white opaque 96 well plate using a Biotek plate reader.
`NCC(=O)Nc1ccc(-n2nc(C(F)(F)F)c3c2CCCC3)cc1` [Compound 331] came in with a Selectivity of 4.7.

In turn, `CC(C)(C)OC(=O)NC1CCN(C(=O)c2ccc(-n3cc(C(F)(F)F)nc3-c3ccc(-c4ccc(C(F)(F)F)cc4)cc3)c(F)c2)C1` (centres unmarked) [Compound 182] registered a Selectivity of 3.0.

With `Nc1ccc(-n2cc(C(F)(F)F)nc2-c2ccc(-c3ccccc3)cc2)cc1` [Compound 33], the Selectivity is reported as under 0.2.

`Cl.NC1CCN(c2ccc(-n3nc(C(F)(F)F)c4ccc(-c5ccc(C(F)(F)F)cc5)cc43)cc2)C1` (centres unmarked) [Compound 141]: the Selectivity is reported as 2.1.

`FC(F)(F)c1ccc(-c2cc(C(F)(F)F)nn2-c2ccc(NC3CCNC3)cc2)cc1` (centres unmarked) [Compound 252] returned a Selectivity of 6.2.

Take `COc1ccc(-n2nc(C(F)(F)F)cc2-c2ccc(-c3ccc(C(F)(F)F)cc3)cc2)cc1` [Compound 26]: the Selectivity was under 0.6.

In the case of `Cl.FC(F)(F)c1cc(-c2ccc(C3CC3)cc2)n(-c2ccc(N3CCNCC3)cc2)n1` [Compound 211], the Selectivity came to 6.3.

With `FC(F)(F)c1cn(-c2ccc(N3CCC(NCc4ccccc4)C3)cc2)c(-c2ccc(-c3ccccc3)cc2)n1` (centres unmarked) [Compound 84], the Selectivity was over 7.7.

Molecule `FC(F)(F)c1cc(C2CCCCC2)n(-c2ccc(NC3CCNC3)cc2)n1` (centres unmarked) [Compound 312] showed a Selectivity of 5.3.

The molecule `FC(F)(F)c1cn(-c2ccc(NCC3CC3)cc2)c(-c2ccc(-c3ccccc3)cc2)n1` [Compound 116] registered a Selectivity of over 5.0.

`CC(=O)c1ccc(-c2ccc(C(F)(F)F)cc2)cc1` [Compound 5] yielded a Selectivity of 5.8.

Turning to `O=C(CNCc1ccccc1)Nc1ccc(-n2nc(C(F)(F)F)cc2C2CCCCC2)cc1` [Compound 353], the Selectivity turned out to be 4.2.

For `NCC(=O)Nc1ccc(-c2cc(C(F)(F)F)nn2-c2ccc(-c3ccc(C(F)(F)F)cc3)cc2)cc1` [Compound 155], the Selectivity turned out to be 1.5.

Consider `Cl.FC(F)(F)c1cc(-c2ccc(-c3cccs3)cc2)n(-c2ccc(N3CCNCC3)cc2)n1` [Compound 209], for which the Selectivity was 3.4.

In turn, `CC(=O)NCCCNC1CCN(c2ccc(-n3nc(C(F)(F)F)cc3C3CCCCC3)cc2)CC1` [Compound 421] gave a Selectivity of 12.5.

Molecule `FC(F)(F)c1cc(C2CCCCC2)n(-c2ccc(NC3CCN(Cc4ccccc4)CC3)cc2)n1` [Compound 321] had a Selectivity of 4.7.

With `O=C(CCCCBr)N1CCC(Nc2ccc(-n3nc(C(F)(F)F)cc3-c3ccc(-c4ccc(C(F)(F)F)cc4)cc3)cc2)CC1` [Compound 117], the Selectivity is reported as over 8.2.

Consider `FC(F)(F)c1ccc(-c2ccc(-c3cc(C(F)(F)F)nn3-c3ccc(OC4CCNC4)cc3)cc2)cc1` (centres unmarked) [Compound 144], for which the Selectivity is listed as under 0.5.

In turn, `Cl.Cl.NCCOCCN1CCC(Oc2ccc(-n3nc(C(F)(F)F)cc3C3CCCCC3)cc2)CC1` [Compound 423] returned a Selectivity of 0.6.

On to `FC(F)(F)c1cc(C2CCCCC2)n(-c2ccc(N3CCC(NCc4ccccc4)C3)cc2)n1` (centres unmarked) [Compound 364], for which the Selectivity was found to be 4.5.

In turn, `Cl.Cl.NCCCCN1CCC(Oc2ccc(-n3nc(C(F)(F)F)cc3C3CCCCC3)cc2)CC1` [Compound 424] gave a Selectivity of 2.7.

As to `Cl.FC(F)(F)c1ccc(-c2cnnn2-c2ccc(NC3CCNCC3)cc2)cc1` [Compound 434], the Selectivity is recorded as under 2.5.

Molecule `Cl.FC(F)(F)c1cc(-c2ccc(-c3ccc(S(F)(F)(F)(F)F)cc3)cc2)n(-c2ccc(N3CCNCC3)cc2)n1` [Compound 46] had a Selectivity of under 1.0.

Molecule `FC(F)(F)c1cc(-c2ccco2)n(-c2ccc(NC3CCNC3)cc2)n1` (centres unmarked) [Compound 273] registered a Selectivity of 3.2.

Turning to `FC(F)(F)c1cc(C2CCCCC2)n(-c2ccc(NC3CCNCC3)cc2)n1` [Compound 339], the Selectivity was determined as 10.4.

For the molecule `CC(C)C#Cc1ccc(-c2cc(C(F)(F)F)nn2-c2ccc(N3CCC(NCc4ccccc4)C3)cc2)cc1` (centres unmarked) [Compound 99], the Selectivity is under 2.9.

As to `Cl.Cl.NCCCCCN1CCC(Oc2ccc(-n3nc(C(F)(F)F)cc3C3CCCCC3)cc2)CC1` [Compound 422], the Selectivity worked out at 2.4.

Molecule `Oc1ccc(CN2CCC(Oc3ccc(-n4nc(C(F)(F)F)cc4C4CCCCC4)cc3)CC2)cc1` [Compound 374] displayed a Selectivity of 2.6.

Turning to `FC(F)(F)c1cc(C2CCCCC2)n(-c2ccc(OC3CCN(Cc4ccccc4)CC3)cc2)n1` [Compound 371], the Selectivity is recorded as over 5.6.

As to `CC(C)(C)OC(=O)NCC(=O)Nc1ccc(-n2cc(C(F)(F)F)nc2-c2ccc(C(C)(C)C)cc2)cc1` [Compound 151], the Selectivity is on record as under 3.2.

As to `Oc1ccc(CN2CCC(Nc3ccc(-n4nc(C(F)(F)F)cc4C4CCCCC4)cc3)C2)cc1` (centres unmarked) [Compound 368], the Selectivity was found to be 7.6.

Regarding `FC(F)(F)c1ccc(-c2ccc(-c3nc(C(F)(F)F)cn3-c3ccc(N4CCNCC4)cc3)cc2)cc1` [Compound 74], the Selectivity is given as 2.3.

Molecule `NC1CCN(c2ccc(-n3ccnc3-c3ccc(-c4ccccc4)cc3)cc2)C1` (centres unmarked) [Compound 83] gave a Selectivity of 3.5.

For the molecule `N#Cc1ccc(CN2CCC(Nc3ccc(-n4nc(C(F)(F)F)cc4C4CCCCC4)cc3)C2)cc1` (centres unmarked) [Compound 358], the Selectivity is given as under 1.3.

Turning to `FC(F)(F)c1ccc(-c2ccc(-c3cc(C(F)(F)F)nn3-c3ccc(N4CCNCC4)cc3)cc2)cc1` [Compound 220], the Selectivity came out at 11.8.

Molecule `NS(=O)(=O)c1ccc(-n2nc(C(F)(F)F)cc2-c2ccc(-c3ccc(C(F)(F)F)cc3)cc2)cc1` [Compound 188] registered a Selectivity of 2.9.

On to `FC(F)(F)c1ccc(-c2ccc(-c3cc(C(F)(F)F)nn3-c3ccc(N4CCC(NCc5ccccc5)CC4)cc3)cc2)cc1` [Compound 89], for which the Selectivity was 2.0.

`Cl.NC1CCN(c2ccc(-n3nc(C(F)F)cc3-c3ccc(-c4ccc(C(F)(F)F)cc4)cc3)cc2)C1` (centres unmarked) [Compound 281] returned a Selectivity of 7.2.

`Fc1cccc(CN2CCC(Nc3ccc(-n4nc(C(F)(F)F)cc4C4CCCCC4)cc3)C2)c1` (centres unmarked) [Compound 357] returned a Selectivity of 10.7.

In turn, `FC(F)(F)c1ccc(-c2ccc(-c3cc(C(F)(F)F)nn3-c3ccc(N4CC(NC5CCCC5)C4)cc3)cc2)cc1` [Compound 55] showed a Selectivity of 3.5.

Molecule `Cl.Cl.NCCCOc1ccc(CN2CCC(Oc3ccc(-n4nc(C(F)(F)F)cc4C4CCCCC4)cc3)CC2)cc1` [Compound 429] registered a Selectivity of 5.1.

The molecule `Nc1ccc(-c2cc(C(F)(F)F)nn2-c2ccc(-c3ccc(C(F)(F)F)cc3)cc2)cc1` [Compound 152] came in with a Selectivity of under 4.4.

Molecule `CC(C)(C)c1nc(C(F)(F)F)cn1-c1ccc(NC2CCNC2)cc1` (centres unmarked) [Compound 330] came in with a Selectivity of over 8.1.

Take `Oc1ccc(CN2CCC(Oc3ccc(-n4nc(C(F)(F)F)cc4C4CCCCC4)cc3)C2)cc1` (centres unmarked) [Compound 377]: the Selectivity is given as 1.8.

Molecule `C#CCCCC(=O)NC1CCN(c2ccc(-n3nc(C(F)(F)F)cc3-c3ccc(-c4ccc(C(F)(F)F)cc4)cc3)cc2)CC1` [Compound 92] displayed a Selectivity of under 1.5.

`O=C1CN(c2ccc(-n3cc(C(F)(F)F)nc3-c3ccc(C(F)(F)F)cc3)cc2)CCN1` [Compound 332] returned a Selectivity of 3.9.

The molecule `FC(F)(F)c1cc(C(F)(F)F)n(-c2ccc(NC3CCNC3)cc2)n1` (centres unmarked) [Compound 314] gave a Selectivity of 8.0.

The molecule `Cl.Cl.NCCCCCOc1ccc(CN2CCC(Oc3ccc(-n4nc(C(F)(F)F)cc4C4CCCCC4)cc3)CC2)cc1` [Compound 432] displayed a Selectivity of 2.0.

Molecule `CC(=O)NCCCCCN1CCC(Oc2ccc(-n3nc(C(F)(F)F)cc3C3CCCCC3)cc2)CC1` [Compound 431] came in with a Selectivity of 4.7.

In turn, `N#Cc1ccc(CN2CCC(Oc3ccc(-n4nc(C(F)(F)F)cc4C4CCCCC4)cc3)CC2)cc1` [Compound 373] came in with a Selectivity of over 7.2.

The molecule `COc1ccc(-c2cc(C(F)(F)F)nn2-c2ccc(NC3CCNC3)cc2)cc1OC` (centres unmarked) [Compound 260] gave a Selectivity of 3.2.

Turning to `FC(F)(F)c1cn(-c2ccc(OC3CCNC3)cc2)c(-c2ccc(-c3ccccc3)cc2)n1` (centres unmarked) [Compound 328], the Selectivity amounted to 4.3.

The molecule `FC(F)(F)c1cc(C2CCCCC2)n(-c2ccc(NC3CNC3)cc2)n1` [Compound 394] came in with a Selectivity of 5.6.

The molecule `FC(F)(F)c1ccc(-c2ccc(-c3cc(C(F)(F)F)nn3-c3ccc(N4CCC(NC5CCCCCC5)C4)cc3)cc2)cc1` (centres unmarked) [Compound 69] yielded a Selectivity of 2.3.

Turning to `NC(Cc1ccccc1)C(=O)Nc1ccc(-n2cc(C(F)(F)F)nc2-c2ccc(-c3ccc(C(F)(F)F)cc3)cc2)cc1` (centres unmarked) [Compound 80], the Selectivity amounted to 2.7.

In the case of `CC(=O)c1ccc(-n2cc(C(F)(F)F)nc2-c2ccc(-c3ccccc3)cc2)cc1` [Compound 184], the Selectivity is given as over 10.

`O=C(CNCc1cccc(F)c1)Nc1ccc(-n2nc(C(F)(F)F)cc2C2CCCCC2)cc1` [Compound 352] gave a Selectivity of under 2.9.

`Oc1ccc(CN2CCC(Nc3ccc(-n4nc(C(F)(F)F)cc4C4CCCCC4)cc3)CC2)cc1` [Compound 392] yielded a Selectivity of 5.5.

Consider `FC(F)(F)c1cn(-c2ccc(NCc3ccccc3)cc2)c(-c2ccc(-c3ccccc3)cc2)n1` [Compound 87], for which the Selectivity is given as over 7.4.
